Test results from patent US4938956A, “Synergistic immunostimulating composition and method” (priority 1987, dated 1990).
Several values for one entry are separate records, joined by “and”; a condition that tells them apart may be missing. Identical values can stand only once.

Tested on: pseudorabies virus (PrV)
Design: species or system mice
Details: mouse, in vivo

IL-2
Median Survival Times: 3 days and 4 days and 3.3 days and 4.5 days and 5 days and 3.7 days
